# US20240109955A1 (published 2024)
# B1: MX828 (bispecific antibody)
# chain: QTVVTQEPSFSVSPGGTVTLTCGLSSGSVSTAYFPSWYQQTPGQAPRTLIYGTNTRSSGVPDRFSGSILGNKAALTITGAQADDESDYYCVLYMGRGIVVFGGGTKLTVLGGSSGEIVLTQSPGTLSLSPGERATLSCRASQSVSSSYLAWYQQKPGQAPRLLIYSASSRATGIPDRFSGSGSGTDFTLTISRLEPEDFAVYFCQQYVGLTGWTFGQGTKVEIKGGGGSGGSGSGGGGSASGSGQMQLVQSGPEVKKPGTSVKVSCKASGFTFTSSAVQWVRQRQRLEWIGWIVVGSGNTNYAQKFQERVTITRDMSTSTAYMELSSLRSEDTAVYYCAAPNCSNVVCYDGFDIWGQGTMVTVSSGGSSGQVQLVESGGGVVQPGRSLRLSCAASGFTLSSYGMHWVRQAPGKGLEWVAVISYDGSNKYYVDSVKGRFTISRDNSKNTLYLQMNSLRAEDTAVYYCRWAYWELLPDYYYGMDVWGQGTTVTVSSASGGSGDKTHTCPPCPAPELLGGPSVFLFPPKPKDTLMISRTPEVTCVVVDVSHEDPEVKFNWYVDGVEVHNAKTKPREEQYNSYVVSVLTVLHQDWLNGKEYKCKVSNKALPAPIEKTISKAKGQPREPQVYTLPPSRDELTKNQVSLTCLVKGFYPSDIAVEWESNGQPENNYKTTPPVLDSDGSFFKKLTVDKSRWQQGNVFSCSVLHEALHSHYTQKSLSLSPG
# B2: MX829 (bispecific antibody)
# chain: DIQMTQSPSSVSASVGDRVIITCRASQGISSWLAWYQQKPGKAPKVLIYDASSLQSGVPSRFSGSGYGTDFTLTISSLQPEDSATYYCQQAKSFPITFGQGTRLEIKGGSSGEIVLTQSPGTLSLSPGERATLSCRASQSVSSSYLAWYQQKPGQAPRLLIYSASSRATGIPDRFSGSGSGTDFTLTISRLEPEDFAVYFCQQYVGLTGWTFGQGTKVEIKGGGGSGGSGSGGGGSASGSGQMQLVQSGPEVKKPGTSVKVSCKASGFTFTSSAVQWVRQRQRLEWIGWIVVGSGNTNYAQKFQERVTITRDMSTSTAYMELSSLRSEDTAVYYCAAPNCSNVVCYDGFDIWGQGTMVTVSSGGSSGQVQLVESGGGVVQPGRSLRLSCAASGFTFSSYAFHWVRQAPGKGLEWVAVISYDGSNQYYADSVKGRFTISRDNSKNTLYLQMNSLRADDTAVYYCARDLAIAVAGTWHYYNGMDVWGQGTTVTVSSASGGSGDKTHTCPPCPAPELLGGPSVFLFPPKPKDTLMISRTPEVTCVVVDVSHEDPEVKFNWYVDGVEVHNAKTKPREEQYNSYVVSVLTVLHQDWLNGKEYKCKVSNKALPAPIEKTISKAKGQPREPQVYTLPPSRDELTKNQVSLTCLVKGFYPSDIAVEWESNGQPENNYKTTPPVLDSDGSFFKKLTVDKSRWQQGNVFSCSVLHEALHSHYTQKSLSLSPG
# B3: MX830 (bispecific antibody)
# chain: B1 chain with V208G
# B4: MX831 (bispecific antibody)
# chain: B2 chain with V205G
# Target: SARS-CoV-2 spike (S) protein, Omicron sublineage BA.4.7 (R346S, F486V) (SARS-CoV-2, UniProt P0DTC2 14-1273)
# Assay: cell-based or functional assay
Binder,"IC50, pseudovirus neutralization [nM]","IC80, pseudovirus neutralization [nM]"
B1,143,1760
B2,2.37,13
B3,276,> 10000
B4,3.08,19.1

# Target: SARS-CoV-2 spike (S) protein, Omicron sublineage BF.7 (R346T, F486V) (SARS-CoV-2, UniProt P0DTC2 14-1273)
# Assay: cell-based or functional assay
Binder,"IC50, pseudovirus neutralization [nM]","IC80, pseudovirus neutralization [nM]"
B1,356,1420
B2,3.45,22.2
B3,860,4380
B4,3.73,21.7

# Target: SARS-CoV-2 spike (S) protein, Omicron sublineage BQ 1.1 (R346T, K444T, F486V) (SARS-CoV-2, UniProt P0DTC2 14-1273)
# Assay: cell-based or functional assay
Binder,"IC50, pseudovirus neutralization [nM]","IC80, pseudovirus neutralization [nM]"
B1,375,1130
B2,1920,8870
B3,629,2710
B4,4210,> 10000

# Target: SARS-CoV-2 spike (S) protein, Omicron sublineage BA.1.1 (R346K) (SARS-CoV-2, UniProt P0DTC2 14-1273)
# Assay: cell-based or functional assay
Binder,"IC80, pseudovirus neutralization [nM]","IC50, pseudovirus neutralization [nM]"
B1,6.23,
B2,35.4,6.72
B3,11.5,10.4
B4,50,17.2

# Target: SARS-CoV-2 spike (S) protein, Omicron sublineage BA.4.6 (R346T, F486V) (SARS-CoV-2, UniProt P0DTC2 14-1273)
# Assay: cell-based or functional assay
Binder,"IC50, pseudovirus neutralization [nM]","IC80, pseudovirus neutralization [nM]"
B1,124,1640
B2,17.2,42.7
B3,207,4650
B4,27.9,58.5

# Residue numbers refer to the chain shown, from its start.
